Results of unrelated studies side by side (data: NIAID ChemDB).

All rows: whole-cell or culture tests; species: Mycobacterium tuberculosis

MIC50, MIC90 and the like: level of inhibition, or share of isolates inhibited. Lines come from different laboratories, so protocols vary. MIC bound comes from a single tested concentration. Inhibition is in % at the dose shown (toxicity tests: loss of growth or viability). ECn: concentration that inhibits the pathogen or its effect by n%. Blank or dashed fields: not listed here.

smiles | strain | cell line | read by | measure | tested at | result
O=C1CC(c2ccccc2)Oc2cc(I)ccc21 | - | - | - | EC50 | - | >12.5 µg/mL
COC(=O)C1(C)C=CC(=O)C2(C)C1C(O)C1OC3CC(c4ccoc4)C(C)=C3C1(C)C2CC(=O)O | H37Rv | - | BACTEC | MIC bound | - | >12.8 µg/mL
CCC(C)(C)NCCNCC1(O)CCCCC1 | - | - | - | MIC | - | 50 µM
CO[C@H]1/C=C/O[C@@]2(C)Oc3c(C)c(O)c4c(=O)c(c5oc6cc(N7CCN(CC(C)C)CC7)cc(=O)c6nc5c4c3=C2O)NC(=O)/C(C)=C\C=C\[C@H](C)[C@H](O)[C@@H](C)[C@@H](O)[C@@H](C)[C@H](OC(C)=O)[C@@H]1C | 31 (rifampin-resistant) | - | - | MIC | - | 0.1 µg/mL
O=C1CC(c2ccccc2O)Oc2ccccc21 | - | - | - | EC50 | - | >12.5 µg/mL
CC(C)c1ccc2c(c1)CC[C@H]1[C@](C)(CNCCNCc3ccc(C(F)(F)F)cc3)CCC[C@]21C | - | - | - | MIC | - | 25 µM
CCN(CC)CCNc1ccc(CO)c2sc3ccccc3c(=O)c12 | H37Rv | - | BACTEC | MIC bound | - | ≤12.5 µg/mL
O=C(c1ccccc1)c1ccc(NCc2ccccc2O)cc1 | H37Rv | - | - | MIC | - | 100 µg/mL
COc1ccc(CNCCNC[C@]2(C)CCC[C@]3(C)c4ccc(C(C)C)cc4CC[C@@H]23)cc1OC | - | - | - | MIC | - | 50 µM
CN(C)CC(C)(C)CO | H37Rv | - | - | MIC | - | >100 µg/mL
C(CNC12CC3CC(CC(C3)C1)C2)NCC12CC3CC(CC(C3)C1)C2 | - | - | - | MIC | - | 18.8 µM
CCCCCCCCCCCNCCNCCc1ccccc1Cl | - | - | - | MIC | - | 25 µM
CCOC(=O)c1cc2sc(NC(=O)c3ccco3)nc2o1 | H37Rv | - | BACTEC | MIC bound | - | >12.5 µg/mL
NCCSSCCN | H37Rv | - | - | MIC | - | >100 µg/mL
O=c1[nH]nc(-c2ccccc2)c2nc3ccccc3n12 | H37Rv | - | BACTEC | inhibition | 12.5 µg/mL | 18%
CC(=O)NNS(=O)(=O)c1ccc(Cl)c(Cl)c1 | - | - | - | MIC | - | >200 µg/mL
C[C@H]1COc2c(N3CCN(C)CC3)c(F)cc3c(=O)c(C(=O)O)cn1c23 | H37Rv | - | - | MBC | - | 0.25 µg/mL
O=C(O)c1ccc(C(=O)c2ccccc2)c2c1C(=O)c1ccccc1C2=O | H37Rv | - | - | MIC | - | 100 µg/mL
CCOC(=O)C1=CNC(C(=O)OCC)C1c1cccn1-c1ccccc1 | H37Rv | - | BACTEC | inhibition | 6.25 µg/mL | 36%
NCC[C@H](O)C(=O)N[C@@H]1C[C@H](N)[C@@H](O[C@H]2O[C@H](CN)[C@@H](O)[C@H](O)[C@H]2O)[C@H](O)[C@H]1O[C@H]1O[C@H](CO)[C@@H](O)[C@H](N)[C@H]1O | MDR20 | - | broth dilution / resazurin | MIC | - | 1 µg/mL
NCC[C@H](O)C(=O)N[C@@H]1C[C@H](N)[C@@H](O[C@H]2O[C@H](CN)[C@@H](O)[C@H](O)[C@H]2O)[C@H](O)[C@H]1O[C@H]1O[C@H](CO)[C@@H](O)[C@H](N)[C@H]1O | A4B (amikacin-resistant) | - | - | MIC | - | 64 µg/mL
CC1CCC(NCCNC[C@@H]2CC[C@H]3C[C@@H]2C3(C)C)CC1 | - | - | - | MIC | - | 12.5 µM
c1cc(NCCN[C@H]2C[C@@H]3CC[C@H]2C3)c2cccnc2c1 | - | - | - | MIC | - | >50 µM
O=C1CC(c2ccccc2)Oc2cc(Br)ccc21 | H37Rv | - | - | inhibition | 12.5 µg/mL | 15%
O=C(O)c1ccc(N=NC2Sc3nc4ccccc4n3C2=O)cc1 | H37Rv | - | BACTEC | MIC | - | ≥12.5 µg/mL
CCNC(C)C(=O)c1ccccc1.Cl | H37Rv | - | - | MIC | - | >100 µg/mL
Cc1ccc(NCCC2CCCN3CCCCC23)c2c(=O)c3ccccc3sc12 | H37Rv | VERO | BACTEC | MIC | - | 1.6 µg/mL
CO[C@H]1/C=C/O[C@@]2(C)Oc3c(C)c(O)c4c(O)c(c(/C=N/N5CCN(C/C=C/c6ccccc6)CC5)c(O)c4c3C2=O)NC(=O)/C(C)=C\C=C\[C@H](C)[C@H](O)[C@@H](C)[C@@H](O)[C@@H](C)[C@H](OC(C)=O)[C@@H]1C | 29 (rifampin-resistant) | - | - | MBC | - | 0.2 µg/mL
N#Cc1ccc(N=C=O)cc1 | H37Rv | - | - | MIC | - | 50 µg/mL
CCOC(=O)Nc1cc(NC(C)C(=O)c2ccc(O)cc2)c([N+](=O)[O-])c(N)n1 | H37Rv | - | - | inhibition | 12.5 µg/mL | 0%
c1ccc2c(c1)ccc1ccccc12 | H37Rv | - | - | MIC | - | >100 µg/mL
O=C1C2C3C=CC(O3)C2C(=O)N1CCN1CCCCC1 | H37Rv | - | BACTEC | inhibition | 12.5 µg/mL | -3%
CC[C@H]1OC(=O)[C@H](C)[C@@H](O[C@H]2C[C@@](C)(OC)[C@@H](O)[C@H](C)O2)[C@H](C)[C@@H](O[C@@H]2O[C@H](C)C[C@H](N(C)C)[C@H]2O)[C@](C)(O)C[C@@H](C)C(=O)[C@H](C)[C@@H](O)[C@]1(C)O | ATCC 35830 | - | - | MIC | - | >8 µg/mL
CC(C)c1ccc2c(c1)CC[C@H]1[C@](C)(CNCCNC[C@@H](C)O)CCC[C@]21C | - | - | - | MIC | - | 50 µM
O=C1CCC(C(=O)O)N1 | H37Rv | - | - | MIC | - | >100 µg/mL
Clc1ccc(CCNCCNCCC(c2ccccc2)c2ccccc2)c(Cl)c1 | - | - | - | MIC | - | 12.5 µM
CC(=O)N/N=C/c1ccoc1 | - | - | - | MIC | - | 200 µg/mL
CCOC(=O)Nc1cc(NC(C)[C@H](C)c2ccccc2)c(N)c(N)n1 | H37Rv | - | - | inhibition | 12.5 µg/mL | 56%
CC1(C)C2CCC1(C)C(N)C2.Cl | H37Rv | - | - | MIC | - | >100 µg/mL
CCCCC(CC)CN1CN(CC(CC)CCCC)CC(C)(NCCNCc2ccccc2OCC)C1 | - | - | - | MIC | - | 12.5 µM
Fc1ccccc1CCNCCNCCc1ccc(Cl)cc1Cl | - | - | - | MIC | - | 50 µM
CO[C@H]1/C=C/O[C@@]2(C)Oc3c(C)c(O)c4c(O)c(c(/C=N/N5CCN(C)CC5)c(O)c4c3C2=O)NC(=O)/C(C)=C\C=C\[C@H](C)[C@H](O)[C@@H](C)[C@@H](O)[C@@H](C)[C@H](OC(C)=O)[C@@H]1C | TN640 | - | - | MIC | - | >32 µg/mL
CC12CCC3C(CCC4(O)C=CCCC34C=O)C1(O)CC(O)C2c1ccc(=O)oc1 | H37Rv | - | BACTEC | MIC | - | ≥12.5 µg/mL
CCCCC(CC)CN1CN(CC(CC)CCCC)CC(C)(NCCNCc2cccc3ccccc23)C1 | - | - | - | MIC | - | 25 µM
CC(O)(c1ccncc1)c1cc2ccccc2n1S(=O)(=O)c1ccccc1 | H37Rv | - | - | MIC bound | - | >6.25 µg/mL
O=c1oc2ccccc2c(=O)n1-c1ccc(Cl)cc1 | CNCTC MY331/88 | - | - | MIC | - | 31 µM
O=[N+]([O-])c1cccnc1Sc1nc2ccccc2[nH]1 | H37Rv | - | resazurin | inhibition | 6.25 µg/mL | -7%
NNC(=O)COc1cc(Cl)c(Cl)cc1Cl | - | - | - | MIC | - | >200 µg/mL
CC(C)=CCC/C(C)=C/CNCCNCCc1ccc(Cl)cc1Cl | - | - | - | MIC | - | 50 µM
CCOC(=O)Nc1cc2ncc(CNc3ccc(C(=O)OCC)cc3)nc2c(N)n1 | H37Rv | - | - | EC50 | - | >12.5 µg/mL
O=C1CC(c2ccc(Br)cc2)Oc2ccccc21 | H37Rv | - | - | inhibition | 12.5 µg/mL | 26%
CCOc1ccccc1CNCCNC(c1ccccc1)c1ccccc1 | - | - | - | MIC | - | 50 µM
O=c1oc2ccc([N+](=O)[O-])cc2c(=O)n1-c1ccc(F)cc1 | CNCTC MY331/88 | - | - | MIC | - | 31 µM
CSc1nc(C)cc(NCCCCCCN)n1.Cl | H37Rv | - | - | MIC | - | >100 µg/mL
CCOC(=O)Nc1cc(NC/C(CCc2ccccc2)=N\O)c([N+](=O)[O-])c(N)n1 | H37Rv | - | - | EC50 | - | >12.5 µg/mL
CC(C)CC1NC(=O)C(CC(C)C)N(CO)C1=O | H37Rv | - | BACTEC | MIC bound | - | >12.5 µg/mL
COc1cc(OC)c(C(=O)c2cc(Cl)c(C)cc2O)c(C(=O)O)c1 | H37Rv | - | - | MIC | - | >100 µg/mL
O=c1oc(-c2ccc([N+](=O)[O-])cc2Cl)nc2ccccc12 | H37Rv | - | BACTEC | MIC bound | - | >12.5 µg/mL
Cc1ccc(Sc2ccccc2N)cc1 | H37Rv | - | - | MIC | - | 100 µg/mL
C=C(Br)C(=O)N1CCCC1C(=O)NC | H37Rv | - | BACTEC | inhibition | 12.5 µg/mL | 6%
CCOC(=O)Nc1cc2[nH]c(-c3ccc(OC)cc3)nc2c(N)n1 | H37Rv | - | - | EC50 | - | >12.5 µg/mL
Cc1cccc(CNCCNCCCCc2ccccc2)c1 | - | - | - | MIC | - | 12.5 µM
COc1ccc(N)cc1 | H37Rv | - | - | MIC | - | 100 µg/mL
O=[N+]([O-])c1cccnc1NCC1(CO)CCCC1 | H37Rv | - | resazurin | inhibition | 6.25 µg/mL | 2%
CCOC(=O)c1ccc([N+](=O)[O-])cc1O | H37Rv | - | - | MIC | - | >100 µg/mL
O=C(N/N=C/c1ccc([N+](=O)[O-])cc1)c1ccccc1Cl | - | - | - | MIC | - | 100 µg/mL
C[C@@H]1CN(c2c(F)c(N)c3c(=O)c(C(=O)O)cn(C4CC4)c3c2F)C[C@H](C)N1 | DRUG-SUS | - | - | MIC90 | - | 0.06 µg/mL
O=C(/C=C/c1ccccc1Br)c1ccccc1O | H37Rv | - | - | EC50 | - | <12.5 µg/mL
COc1cccc2c1C(=O)c1c(O)c3c(c(O)c1C2=O)CC(O)(C(C)=O)CC3OC1CC(NCC2(O)OCC(O)C2O)C(O)C(C)O1 | H37Rv | - | BACTEC | MIC | - | ≥12.5 µg/mL
O=c1oc2ccc(Br)cc2c(=O)n1-c1cccc(Cl)c1 | CNCTC MY331/88 | - | - | MIC | - | 8 µM
NC(=S)Nc1ccc([N+](=O)[O-])cc1 | H37Rv | - | - | MIC | - | 25 µg/mL
CC1CN(c2cc3c(cc2F)c(=O)c(C(=O)O)cn3-c2ccc(F)cc2F)CCN1 | ATCC 35830 | - | - | MIC | - | 0.5 µg/mL
CCOC(=O)Nc1cc(NC(O)CCCN(CC)CC)c2ncc(-c3cc(OC)c(OC)c(OC)c3)nc2n1 | H37Rv | - | - | inhibition | 12.5 µg/mL | 40%
Cc1coc(NS(=O)(=O)c2ccc(N=Nc3c(N)n(C)c(=O)n(C)c3=O)cc2)c1C | H37Rv | - | BACTEC | MIC bound | - | >12.5 µg/mL
CC(=O)c1ccc(N)cc1 | H37Rv | - | - | MIC | - | >100 µg/mL
COc1ccc(Cl)c(/C=N/NC(=O)c2ccccc2Cl)c1Cl | - | - | - | MIC | - | 100 µg/mL
COc1ccc(/C=C/C(=O)c2ccc(F)cc2O)cc1 | - | - | - | EC50 | - | <12.5 µg/mL
COC(=O)c1cc(NS(=O)(=O)N(C)C)cc(C(=O)OC)c1 | H37Rv | - | BACTEC | inhibition | 12.5 µg/mL | -7%
Nc1nc(N)nc(Cl)n1 | H37Rv | - | - | MIC | - | >100 µg/mL
O=[N+]([O-])OC1CCCC(O[N+](=O)[O-])c2c1n([O-])c1ccccc1[n+]2=O | H37Rv | - | resazurin | MIC bound | - | >6.25 µg/mL
COc1ccc2ccccc2c1/C=C(\C)C(=O)O | H37Rv | - | - | MIC | - | 100 µg/mL
Cc1ccc2oc(=O)n(-c3cccc(Cl)c3)c(=O)c2c1 | CNCTC MY331/88 | - | - | MIC | - | 4 µM
Cc1ccc(N=C2C(=Nc3ccc(C)cc3)N(c3ccc(C)cc3)C(=S)N2C(=O)c2ccccc2)cc1 | H37Rv | - | BACTEC | inhibition | 12.5 µg/mL | 0%
CC(=O)C(C)(CCC#N)CCC#N | H37Rv | - | - | MIC | - | >100 µg/mL